Drawing on patent US6380194B1 (Janssen Pharmaceutica N.V., priority 1996, dated 2002), this text covers SI for seven compounds.

Molecules are shown by their SMILES. Some results are limits rather than exact numbers.

For this data set, the system named is HIV-1. Nature of the data set: Inhibition of HIV-induced cytopathic effect in MT-4 cells (MTT). It is filed as cell-based. As to conditions: selectivity index, ratio of CC50 to IC50. Here is the method:
A rapid, sensitive and automated assay procedure was used for the in vitro evaluation of anti-HIV agents. An […] T4-cell line, MT-4, which was previously shown (Koyanagi et al., Int. J. Cancer, 36, 445-451, 1985) to be highly susceptible to and permissive for HIV infection, served as the target cell line. Inhibition of the HIV-induced cytopathic effect was used as the end point. The viability of both HIV- and mock-infected cells was assessed spectrophotometrically via the in situ reduction of 3-(4,5-dimethylthiazol-2-yl)-2,5-diphenyltetrazolium bromide (MTT). The 50% cytotoxic concentration (CC50 in μM) was defined as the concentration of compound that reduced the absorbance of the mock-infected control sample by 50%. The percent protection achieved by the compound in HIV-infected cells was calculated by the following formula: [formula]
whereby (ODT)HIV is the optical density measured with a given concentration of the test compound in HIV-infected cells; (ODC)HIV is the optical density measured for the control untreated HIV-infected cells; (ODC)MOCK is the optical density measured for the control untreated mock-infected cells; all optical density values were determined at 540 nm. The dose achieving 50% protection according to the above formula was defined as the 50% inhibitory concentration (IC50 in μM). The ratio of CC50 to IC50 was defined as the selectivity index (SI).

On to `N#Cc1ccc(Nc2nc(Cc3c(Cl)cccc3Cl)nc(NCC(O)CO)n2)cc1` (racemic) [Compound 26, (±)-4-[[4-[(2,6-dichlorophenyl)methyl]-6-[(2,3-dihydroxypropyl)amino]-1,3,5-triazin-2-yl]amino]benzonitrile], for which the SI stood at 883.

With `N#Cc1ccc(Nc2nc(Cc3c(Cl)cccc3Cl)nc(NC(CCO)C(N)=O)n2)cc1` (racemic) [Compound 34, (±)-2-[[4-[(4-cyanophenyl)amino]-6-[(2,6-dichlorophenyl)amino]-6-[(2,6-dichlorophenyl)methyl]-1,3,5-triazin-2-yl]amino-4-hydroxybutanamide], the SI was 746.

Regarding `CCO.Cl.N#Cc1ccc(Nc2nc(N)nc(C(CC3CC3)c3c(Cl)cccc3Cl)n2)cc1` (racemic) [Compound 61], the SI was determined as 7.

In the case of `CC(=N)Nc1nc(Cc2c(Cl)cccc2Cl)nc(Nc2ccc(C#N)cc2)n1` [Compound 28], the SI is greater than 37037.

`COC(=O)CN(c1ccc(C#N)cc1)c1nc(N)nc(Cc2c(Cl)cccc2Cl)n1` [Compound 39]: the SI is reported as greater than 256.

Consider `COc1cccc(Cc2nc(N)nc(Nc3ccc(C#N)cc3)n2)c1` [Compound 47], for which the SI is given as greater than 243.

Take `CCOc1cccc(Cc2nc(N)nc(Nc3ccc(C#N)cc3)n2)c1` [Compound 48]: the SI is recorded as greater than 269.
